Measurements reported in PubChem BioAssay AID504761 (Drosophila RNAi Screening Center, 2011).
Test: 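Insect host genes that dengue virus relies on to spread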 (primary screen). System: D.Mel-2 cells from Drosophila. Knock-down reagent: long dsRNA against Drosophila genes. Challenge: infection with dengue virus type 2; dose and infection time not stated. Measurement: 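Per well on two replicate plates, imaging gave the percent of cells positive for viral envelope protein, ranked by infection, and a nuclear count of cells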. Scale: infection score: higher = more virus-infected cells; cell count: higher = more cells in the well. Hit rule: 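Very low infection ranking in both replicate wells (chance probability at most 0.065), then a retest showing infection dropped 1.5-fold or more at p below 0.05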. Calls: active = confirmed: knock-down lowers infection; inactive = not picked or not confirmed.
The screen tested about 22,000 reagents; shown is an unselected part of those with a known target gene and a result. Of all reagents, 116 (0.52%) are marked active. 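Calls depend on retest data that are not deposited; infection was ranked per plate without normalising between plates; the unit of the infection score is not given.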 Raw values are not corrected between plates. Unmarked entries are inactive. Reagents against one gene are numbered here. A plus sign joins genes that one reagent is predicted to hit. Further read-outs or replicates are left out here. The record does not give: the amount of reagent, the time to read-out.

gene	reagent no.	infection score, replicate 1	infection score, replicate 2	cell count, replicate 1
His3.3B (Histone H3.3B)	1	6.1	2.92	6101
His3.3B (Histone H3.3B)	2	2.63	3.76	5774
His3.3B (Histone H3.3B)	3	15.4	15.7	4448
His3.3B (Histone H3.3B)	4	25.2	19.3	5811
CG42726 + CG42727	1	15	26.4	5543
CG42726 + CG42727	2	3.31	1.66	6682
Daxx (Daxx-like protein)	1	4.26	6.34	5655
Daxx (Daxx-like protein)	2			388
Ktch (Ketchup)	1	9.1	3.41	5843
Ktch (Ketchup)	2	1.99	3.95	6386
CRMP (Collapsin Response Mediator Protein)	1	7.19	1.38	5717
CRMP (Collapsin Response Mediator Protein)	2	1.31	5.27	7004
CRMP (Collapsin Response Mediator Protein)	3	3.56	6.2	6796
Cyp6u1 (Cytochrome P450 6u1)	1	13.8	24.8	6803
Cyp6u1 (Cytochrome P450 6u1)	2	2.99	3.47	5879
CG7031	1	0.56	1.27	6421
CG7031	2	2.28	12.1	6670
sll (slalom)	1	27.4	39.5	5108
sll (slalom)	2	4.92	6.26	2764
Skp2 + CG1103	1	12.9	9.91	6526
Skp2 + CG1103	2	2.58	2.91	6278
sls (sallimus)	1	13	18.7	6749
sls (sallimus)	2	4.72	5.34	6065
sls (sallimus)	3	2.24	2.91	5991
CG32679	1	7.62	8.29	4395
Odc1 (Ornithine decarboxylase 1)	1	1.22	3.04	5884
Odc1 (Ornithine decarboxylase 1)	2	8.84	15.1	4944
CG42516 + Pbp49	1	2.98	8.15	5875
CG11906	1	2.73	1.4	6329
lncRNA:CR31044 (long non-coding RNA::CR31044)	1	3.69	5.58	6238
lncRNA:CR31044 (long non-coding RNA::CR31044)	2	1.68	5.82	6565
niki (nimA-like kinase)	1			259
ACC (Acetyl-CoA carboxylase)	1	10.6	9.16	2053
ACC (Acetyl-CoA carboxylase)	2	1.98	6.32	2578

Entries above whose target name begins with L or l:
gene	reagent no.	infection score, replicate 1	infection score, replicate 2	cell count, replicate 1
lncRNA:CR31044 (long non-coding RNA::CR31044)	1	3.69	5.58	6238
lncRNA:CR31044 (long non-coding RNA::CR31044)	2	1.68	5.82	6565

More results follow:
gene	reagent no.	infection score, replicate 1	infection score, replicate 2	cell count, replicate 1
Ir100a (Ionotropic receptor 100a)	1	1.4	0.77	5805
Ir100a (Ionotropic receptor 100a)	2	2.13	2.19	6286
CG4325	1	2.43	11.5	5848
CG4325	2	3.22	2.68	5954
CG32829	1	6.13	6.12	6031
CG32829	2	1.58	15.2	5711
Marcal1	1	5.54	7.43	5723
CG6527	1	1.25	2.41	6075
bwa (brain washing)	1	1.07	3.29	6193
bwa (brain washing)	2	5.43	4.77	6184
beg (bad egg)	1	7.18	9.36	6599
Taf10 (TBP-associated factor 10)	1	4.64	19.1	6136
CG33013 (retired record)	1	29.1	16.4	5368
CG33013 (retired record)	2	9.35	13.7	6147
CG10943	1	1.98	1.26	5868
CG10943	2	16.3	20.2	5478
CG6567	1	1.93	15.3	6822
Sirup (Starvation-upregulated protein)	1	0.71	8.66	6313
Sirup (Starvation-upregulated protein)	2	25.6		2415
mxt (mextli)	1	1.28	1.47	6239
CG17109	1	3.1	0.53	6803
CG17109	2	7.44	4.49	6384
CG3927	1	22.2	32.8	4590
CG3927	2	2.89	2.57	6462
Spt20	1	0.72	8.57	5528
Spt20	2	0.4	5.19	6578
CG5335	1	20.5	8.73	5837
CG5335	2	1.95	1.59	5638
Acox57D-p (acyl-Coenzyme A oxidase at 57D proximal)	1	2.36	4.38	6444
CG1468	1	1.58	10.2	6847
CG1468	2	24.2	25.6	6193
RpL10 (Ribosomal protein L10)	1	4.7	0.99	2085
MED15 (Mediator complex subunit 15)	1	4.41	9.41	5467
MED15 (Mediator complex subunit 15)	2	1.09	1.02	6601
CG42340	1	3.67	11.4	5946
CG42340	2	3.15	2.05	5455
CG42340	3	26.4	19.8	4973
CG42340	4	8.48	7.06	6095
CG42340	5	5.77	4.04	6478
Wbp2 (WW domain binding protein 2)	1	1.82	2.52	6850
